Pooled drug test results. Numbers come from NIAID ChemDB, via PubChem.

All rows: whole-cell or culture tests; species: Herpes simplex virus 1; cells: HFF; read-out: EC50

Conditions beyond the fields shown may differ between rows. Blank or dashed fields: not listed here. ECn: concentration that inhibits the pathogen or its effect by n%.

| structure | strain | method | result |
|---|---|---|---|
| Cc1cn([C@H]2C[C@H](O)[C@]3(CO)C[C@H]23)c(=O)[nH]c1=O | DM2.1 (TK+) | plaque count | 6.3 µg/mL |
| CC(NC(=S)Nc1ccc(NC(=O)c2ccccc2F)cc1C#N)c1ccc(F)cc1 | Patton | ELISA | >10 µg/mL |
| O=c1[nH]c(=O)n([C@H]2C[C@H](O)[C@@H](CO)O2)cc1CCCl | E-377 | cytopathic effect | 0.29 µM |
| CC(C)[C@H](N)C(=O)N[C@H](C(=O)OCC(COC(=O)[C@@H](NC(=O)[C@@H](N)C(C)C)C(C)C)OCn1cnc2c(=O)[nH]c(N)nc21)C(C)C |  | plaque count | 0.56 µM |
| CCCCCCCC/C=C\CCCCCCCOCCCOP1(=O)CO[C@@H](Cn2ccc(N)nc2=O)CO1 | HL-3 | plaque count | 0.2 µM |
| COc1cc(OC)c(NC(=S)Nc2ccc(NC(=O)c3ccccc3F)cc2Cl)cc1Cl | E-377 | ELISA | 0.7 µg/mL |
| Nc1ccn(C[C@@H](CO)OCP(=O)(O)O)c(=O)n1 | E-377 | plaque count | 5.5 µM |
| Nc1ccn(C=C2C[C@H]2CO)c(=O)n1 |  | cytopathic effect | 104 µM |
| OC[C@H]1O[C@@H](n2c(Cl)nc3cc(Cl)c(Cl)cc32)C[C@@H]1O |  | ELISA | 41 µM |
| CCCCC(C)(C)[C@H](O)/C=C/[C@H]1C=CC(=O)[C@@H]1CCCCCCC(=O)O | H129 | hybridisation | 4.9 µg/mL |
| Nc1ccn(C[C@H]2COP(=O)(O)CO2)c(=O)n1 | F | plaque count | 13.6 µM |
| COC(C)c1cn([C@H]2C[C@H](O)[C@@H](CO)O2)c(=O)[nH]c1=O | E-377 | cytopathic effect | 0.6 µM |
| CN[C@H]1C[C@@H](n2cnc3c(N)ncnc32)[C@H](O)[C@@H]1O |  |  | >100 µg/mL |
| Nc1ncnc2c1ncn2C=C1CC1CO |  | plaque count | 140 µM |
| Cc1cn([C@@H]2O[C@H](CO)[C@H]2CO)c(=O)[nH]c1=O | E-377 | plaque count | 0.05 µg/mL |
| COC(=O)[C@H](C)NP(=O)(OC[C@H]1C/C1=C/n1cnc2c(N)nc(N)nc21)Oc1ccccc1 |  | cytopathic effect | 2.7 µM |
| CC[C@@]1(Cl)C(=O)NC(=O)N([C@H]2C[C@H](O)[C@@H](CO)O2)[C@H]1OC | E-377 | cytopathic effect | >50 µM |
| Nc1nc(N)c2ncn(C=C3CC3CO)c2n1 |  | cytopathic effect | 413 µM |
| OC[C@H]1O[C@@H](n2c(=S)[nH]c3cc(Cl)c(Cl)cc32)C[C@@H]1O |  | ELISA | >100 µM |
| Nc1nc2c(ncn2COCCO)c(=O)[nH]1 | 11573 PAAR5 (acyclovir-resistant) | cytopathic effect | 5 µg/mL |
| OC[C@H]1O[C@@H](c2cc(Br)nc3cc(Cl)c(Cl)cc23)C(O)C1O |  | virus yield | <37 µM |
| Nc1nc2cc(Cl)c(Cl)cc2n1[C@H]1C[C@H](O)[C@@H](CO)O1 |  | ELISA | >100 µM |
| CCCCCCCCCCCCOCCCOP(=O)(O)CO[C@H](CO)Cn1ccc(N)nc1=O | HL-3 | plaque count | 0.4 µM |
| Cn1cc(C(=O)NCc2ccc(Cl)cc2)c(=O)c2cc(CN3CCOCC3)ccc21 | L5047716 ACV resistant | plaque count | 2.6 µM |
| O=c1[nH]c(=O)n([C@H]2C[C@H](O)[C@@H](CO)O2)cc1I | P-ACG-R | plaque count | 4.4 µg/mL |
| Cc1cc2nc(Cl)n([C@H]3C[C@H](O)[C@@H](CO)O3)c2cc1C |  | ELISA | >100 µM |
| CC(N=[N+]=[N-])c1cn([C@H]2C[C@H](O)[C@@H](CO)O2)c(=O)[nH]c1=O | E-377 | cytopathic effect | >100 µM |
| CC(C)[C@H](N)C(=O)OCC(COC(=O)[C@@H](N)C(C)C)OCn1cnc2c(=O)[nH]c(N)nc21 |  | plaque count | 0.29 µM |
| COC(=O)[C@H](C)NP(=O)(OCC1C/C1=C/n1cnc2c(NC3CC3)nc(N)nc21)Oc1ccccc1 |  | plaque count | 0.8 µM |
| CCCCCCCCCCCCCCCCOP1(=O)CO[C@@H](Cn2ccc(N)nc2=O)CO1 | E-377 | plaque count | >1 µM |
| COc1nc(N)nc2c1ncn2C=C1CC1CO |  | cytopathic effect | 343 µM |
| Nc1nc2c(ncn2COCCO)c(=O)[nH]1 | F | plaque count | 0.2 µg/mL |
| O=C(NCc1ccc(Cl)cc1)c1cn2c3c(cc(CN4CCOCC4)cc3c1=O)OC(c1cccnc1)C2 | 11360 (ACV-resistant) | plaque count | 5.3 µM |
| COC(=O)C(Cc1c[nH]c2ccccc12)NP(=O)(O)OCC1C/C1=C/n1cnc2c(N)ncnc21 |  | cytopathic effect | >184 µM |

For reference, 4 entries again:

structure	strain	method	result
CC(C)[C@H](N)C(=O)N[C@H](C(=O)OCC(COC(=O)[C@@H](NC(=O)[C@@H](N)C(C)C)C(C)C)OCn1cnc2c(=O)[nH]c(N)nc21)C(C)C		plaque count	0.56 µM
OC[C@H]1O[C@@H](n2c(=S)[nH]c3cc(Cl)c(Cl)cc32)C[C@@H]1O		ELISA	>100 µM
CCCCC(C)(C)[C@H](O)/C=C/[C@H]1C=CC(=O)[C@@H]1CCCCCCC(=O)O	H129	hybridisation	4.9 µg/mL
COc1nc(N)nc2c1ncn2C=C1CC1CO		cytopathic effect	343 µM